Results of unrelated studies side by side (data: NIAID ChemDB).

Common to all: growth or infection tests; organism: Mycobacterium tuberculosis

Percent inhibition refers to the dose given; in toxicity tests it is the harm to the cells. a–b is a range or a potency band. Blank or dashed fields: not listed here. ECn: concentration that inhibits the pathogen or its effect by n%. MIC bound: limit read from a one-dose screen. MIC50, MIC90 and the like: level of inhibition, or share of isolates inhibited. Conditions beyond the fields shown may differ between rows.

structure,strain,endpoint,setting,changes,method,tested at,cell line,result
CCc1nc2c(F)cc(F)cn2c1C(=O)NCc1ccc(N2CCN(S(=O)(=O)C(F)(F)F)C=N2)c(F)c1,,EC50,,,GFP,,,0.0038 µM
COc1cc(C2=NN(C(=O)COc3ccc4ccccc4c3)[C@H](Cc3ccccc3)C2)c(C)cc1OCC(=O)O,Isoniazid-resistant,inhibition,,,,6.25 µg/mL,,20%
COc1nn(-c2cccc(Oc3ccccc3)c2)c(=O)o1,,MIC99,,,,,,>20 µg/mL
Cc1nn(-c2ccccc2)c2c1C(c1ccccc1)c1c(nc(=S)[nH]c1N)O2,H37Rv,inhibition,,,,62.5 µg/mL,,31%
Cc1c(OCC(=O)N/N=C/c2ccc(N(CCCl)CCCl)cc2)ccc2c(=O)c3ccccc3oc12,H37Rv,MIC bound,,,BACTEC,,,>12.5 µg/mL
CCOC(=O)c1c(-c2ccc(OC)cc2)cc2c3ccccc3ccn12,H37Rv,MIC,,,agar,,,16 µM
COc1ccc2nc3cc(Cl)ccc3c(Nc3cc(CN4CCCC4)c(O)c(CN4CCCC4)c3)c2n1,Ty1,MIC,,Rv3405c c190t,resazurin,,,5–10 µg/mL
CO[C@H]1/C=C/O[C@@]2(C)Oc3c(C)c(O)c4c(O)c(c5c(c4c3C2=O)NC2(CCN(CC(C)C)CC2)N=5)=NC(=O)/C(C)=C\C=C\[C@H](C)[C@H](O)[C@@H](C)[C@@H](O)[C@@H](C)[C@H](OC(C)=O)[C@@H]1C,CSU20,MIC,,,,,,≤0.125 µg/mL
C[n+]1ccccc1C(=O)NN.Cc1ccc(S(=O)(=O)[O-])cc1,H37Rv,inhibition,,,BACTEC,12.5 µg/mL,,0%
CC1=NN(c2ccc(CNC(=O)c3c(C(F)(F)F)nc4ccccn34)cc2)CCN1S(=O)(=O)C(F)(F)F,,EC50,,,GFP,,,0.013 µM
COc1ccc(C2c3c(nc(=O)[nH]c3N)Oc3c2c(C)nn3-c2ccccc2)cc1,H37Rv,inhibition,,,,62.5 µg/mL,,53%
N/C(=N\N=C\c1ccccc1O)SCc1ccc(Cl)cc1,H37Rv,MIC,21 d,,broth dilution,,,16 µM
CCc1c(Cl)c(OCCCn2cc(CCN3CCC(N)CC3)nn2)c(Cl)c(OCCCn2cc(CCN3CCC(N)CC3)nn2)c1C(=O)OC1C(C)OC(OC/C2=C\C=C\C[C@H](O)/C(C)=C/[C@H](CC)[C@H](OC3OC(C)(C)C(OC(=O)C(C)C)C(O)C3O)/C(C)=C/C(C)=C/C[C@@H]([C@@H](C)O)OC2=O)C(OC)C1O,H37Ra,MIC,,,visual reading,,,4 µg/mL
Cc1ccc(NC(=O)c2cc3sc(N4CCN(C5COC5)[C@H](C)C4)nc3s2)nc1,H37Rv,MIC,,,visual reading,,,2.75 µM
O=C(CCl)c1ccc(S(=O)c2ccccc2)cc1,H37Rv,MIC,,,,,,25 µg/mL
C[C@H]1CN(c2nc3sc(C(=O)N[C@H]4C[C@@H]4C)cc3s2)[C@@H](C)CO1,H37Rv,MIC,,,visual reading,,,2.25 µM
O=C(c1ccc(-c2ccc(C(=O)C(Br)Br)cc2)cc1)C(Br)Br,H37Rv,MIC,,,,,,6.25 µg/mL
CC1(C)[C@H]2CC[C@@H](CNCCNCC(c3ccccc3)c3ccccc3)[C@@H]1C2,,MIC,,,,,,1.25 µg/mL
COc1cccc(CS/C(N)=N/N=C/c2cc(Cl)ccc2O)c1,H37Rv,MIC,14 d,,broth dilution,,,32 µM
Cc1cc(=O)n(C)c2ccc(N)cc12,H37Rv,inhibition,,,BACTEC,12.5 µg/mL,,0%
COC1=NN(c2ccc(CNC(=O)c3c(C(F)(F)F)nc4ncc(Cl)cn34)cc2F)CCN1S(=O)(=O)C(F)(F)F,,EC50,,,GFP,,,0.0024 µM
Cc1nn(-c2ccccc2)c2c1C(c1cccc(Cl)c1)c1c(nc(=S)[nH]c1N)O2,H37Rv,inhibition,,,,62.5 µg/mL,,45%
N=C1OCCN1/N=C/c1ccc([N+](=O)[O-])o1,H37Rv,inhibition,,,resazurin,6.25 µg/mL,,-10%
C[C@H]1C[C@@H]1NC(=O)c1cc2sc(N3CCC(N4CCOCC4)CC3)nc2s1,H37Rv,MIC,,,visual reading,,,2.11 µM
N#Cc1c(-c2ccc(F)cc2)c([N+](=O)[O-])c2ccccn12,H37Rv,MIC,,,agar,,,5.5 µM
N/C(=N\N=C\c1cc(Cl)ccc1O)SCc1ccc(Br)cc1,H37Rv,MIC,14 d,,broth dilution,,,16 µM
C=C(C)[C@@H]1CC[C@]2(C(=O)O)CC[C@]3(C)C(=CCC4[C@@]5(C)C[C@@H](O)[C@H](O)C(C)(C)C5CC[C@]43C)C12,,MIC,,,,,,50 µg/mL
COc1ccc(C)cc1N=NC1C(=O)N(C(=O)CC(=O)Nc2ccccc2OC)N=C1c1ccccc1,H37Rv,MIC bound,,,BACTEC,,,>12.8 µg/mL
N/C(=N\N=C\c1cc(Cl)ccc1O)SCc1ccccc1,H37Rv,MIC,21 d,,broth dilution,,,32 µM
S=C(S)N1CCCCC1,ETA-R,MIC,,,,,,0.8 µg/mL
C[C@@H]1CN(c2nc3sc(C(=O)N[C@H]4C[C@@H]4C)cc3s2)CCO1,H37Rv,MIC,,,visual reading,,,2.83 µM
Cc1nn(-c2ccccc2)c2c1C(c1cccc(Br)c1)c1c(nc(=O)[nH]c1N)O2,H37Rv,inhibition,,,,62.5 µg/mL,,9%
N/C(=N\N=C\c1ccccc1)SCc1ccccc1,H37Rv,MIC,21 d,,broth dilution,,,125 µM
O=C(O)c1cn(C2CC2)c2c(F)c(N3CCSCC3)c(F)cc2c1=O,Strain 24,MIC,,,,,,1 µg/mL
Nc1ccc(N=Nc2cccc3c2Oc2ccccc2O3)c(N)n1,H37Rv,MIC,,,BACTEC,,,≥12.5 µg/mL
NNC(=O)c1ccncc1,81.10,MIC,,ethA D1109-37,resazurin,,,0.025 µg/mL
CCOC(=O)c1cc2c(=O)oc3ccccc3c2oc1=O,H37Rv,inhibition,,,BACTEC,12.5 µg/mL,,-18%
O=C(CCl)c1ccc(Oc2ccccc2)cc1,H37Rv,MIC,,,,,,25 µg/mL
C/C(=N\NC(=O)CNC(=O)c1ccccc1)c1ccc2ccccc2c1,H37Rv,MIC bound,,,BACTEC,,,>12.5 µg/mL
C[C@@H]1CN(c2nc3sc(C(=O)N[C@H]4C[C@@H]4C)cc3s2)CCN1C1COC1,H37Rv,MIC,,,visual reading,,,3.4 µM
CO[C@H]1/C=C/O[C@@]2(C)Oc3c(C)c(O)c4c(=O)c(c5oc6cc(N7CCN(CC(C)C)CC7)cc(=O)c6nc5c4c3=C2O)NC(=O)/C(C)=C\C=C\[C@H](C)[C@H](O)[C@@H](C)[C@@H](O)[C@@H](C)[C@H](OC(C)=O)[C@@H]1C,TBH1-7 (rifampin-susceptible),MIC,,,,,,<0.01 µg/mL
N#CC(Nc1ccccc1[N+](=O)[O-])c1ccc(OCc2nc3ccccc3[nH]2)cc1,H37Rv,inhibition,,,resazurin,6.25 µg/mL,,68%
CCc1nc2ncccn2c1C(=O)NCc1ccc(N2CCN(S(=O)(=O)C(F)(F)F)C=N2)cc1,,EC50,,,GFP,,,0.079 µM
CNn1cc(C(=O)O)c(=O)c2cc(F)c(N3CCN(C)CC3)cc21,10 strains,MIC,,,,,,≤4 µg/mL
O=C(c1ccc(Oc2ccccc2)cc1)C(Cl)Cl,H37Rv,MIC,,,,,,6.25 µg/mL
O=C(N/N=C/c1ccc2c(c1)OCO2)C(=O)N/N=C/c1ccc2c(c1)OCO2,H37Rv,MIC bound,,,BACTEC,,,>12.5 µg/mL
C=C(C)[C@@H]1CC[C@]2(C(=O)O)CC[C@]3(C)[C@H](CC[C@@H]4[C@@]5(C)CC[C@H](O)C(C)(C)[C@@H]5CC[C@]43C)[C@@H]12,,MIC,,,,,,25 µg/mL
C[C@@H]1CN(c2nc3sc(C(=O)NC4CC5(CC5)C4)cc3s2)CCN1C1COC1,H37Rv,MIC,,,visual reading,,,1.32 µM
Cc1nn(-c2ccccc2)c2c1C(c1ccc(F)cc1)c1c(nc(=S)[nH]c1N)O2,H37Rv,inhibition,,,,62.5 µg/mL,,61%
CC[C@@H](CO)NCCN[C@@H](CC)CO,CSU21,MIC,,,,,,>8 µg/mL
N#CC(Nc1ccccc1)c1ccc(OCc2nc3ccccc3[nH]2)cc1,H37Rv,inhibition,,,resazurin,6.25 µg/mL,,62%
N/C(=N\N=C\c1ccccc1)SCc1ccc(Br)cc1,H37Rv,MIC,14 d,,broth dilution,,,16 µM
N#CC(Nc1ccc(F)cc1F)c1ccc(OCc2nc3ccccc3[nH]2)cc1,H37Rv,inhibition,,,resazurin,6.25 µg/mL,,100%
Cc1nn(-c2ccccc2)c2c1C(c1cccc([N+](=O)[O-])c1)c1c(nc(=O)[nH]c1N)O2,H37Rv,inhibition,,,,62.5 µg/mL,,98%
C[C@H]1C[C@@H]1NC(=O)c1cc2sc(OC3COC3)nc2s1,H37Rv,MIC,,,visual reading,,,1.35 µM
CCc1nc2ccc(C)cn2c1C(=O)NCc1ccc(N2CCN(S(=O)(=O)C(F)(F)F)C(C(=O)N(C)C)=N2)cc1,,EC50,,,GFP,,,0.012 µM
C=C1C(=O)OC2CC1C(O)C/C(C)=C\CC/C(C)=C\C(O)CC2C,H37Rv,MIC,,,BACTEC,,,≥12.5 µg/mL
C=C(C)[C@@H]1CC[C@]2(C(=O)O)CC[C@]3(C)C(CCC4[C@@]5(C)[C@@H](C(=O)O)[C@H](OC(=O)c6ccc(O)c(OC)c6)C(C)(C)[C@@H]5CC[C@]43C)C12,,MIC,,,,,,25 µg/mL
O=C(NC1CCC1)c1cc2sc(C3CC3)nc2s1,H37Rv,MIC,,,visual reading,,,2.72 µM
CCC(=O)OC[n+]1ccc2c(C)c3[nH]c4ccc(OC)cc4c3c(C)c2c1,H37Rv,MIC,,,resazurin,,,0.78 µg/mL
N#Cc1c(-c2ccc(Cl)cc2)c([N+](=O)[O-])c2ccccn12,H37Rv,MIC,,,agar,,,21 µM
COc1ccc(/C(C)=N/NC(=O)c2ccncc2)c(OC)c1,H37Rv,MIC,,,,,VERO,0.075 µg/mL
CCc1nc2sc(C)cn2c1C(=O)NCc1ccc(N2CCN(S(=O)(=O)C(F)(F)F)C=N2)cc1,,EC50,,,GFP,,,0.0032 µM
COC(=O)C1=CO[C@@H](OC2OC(CO)C(O)C(O)C2O)[C@@H]2[C@H](C)[C@@H](O)[C@@H](O)[C@]12O,H37Rv,inhibition,,,BACTEC,12.5 µg/mL,,16%
Cc1nn(-c2ccccc2)c2c1C(c1ccccc1Cl)c1c(nc(=S)[nH]c1N)O2,H37Rv,inhibition,,,,62.5 µg/mL,,57%
N/C(=N\N=C\c1cc(Cl)ccc1O)SCc1ccc(F)cc1,H37Rv,MIC,21 d,,broth dilution,,,16 µM
CC1CN(c2c(F)cc3c(=O)c(C(=O)O)cn(C4CC4)c3c2F)CCN1,CSU23,MIC,,,,,,≤0.125 µg/mL
COc1ccc2cc1-c1cc(ccc1O)C[C@H]1c3cc4c(cc3CCN1C)Oc1c(OC)cc3c(c1O4)[C@H](C2)N(C)CC3,H37Rv,MIC,,,,,VERO,3.1 µg/mL
COc1ccc(-c2c([N+](=O)[O-])c3c4ccccc4ccn3c2C#N)cc1,H37Rv,MIC,,,agar,,,36.4 µM
Cc1cc(C)cc(-n2nnc3ccccc3c2=O)c1,H37Rv,inhibition,,,resazurin,6.25 µg/mL,,46%
N/C(=N\N=C\c1cc(Br)ccc1O)SCc1ccc(C(F)(F)F)cc1,H37Rv,MIC,14 d,,broth dilution,,,32 µM
CN(C)CCNC(=O)c1cccc2nc3c(ccc4ccccc43)nc12.Cl,H37Rv,inhibition,,,BACTEC,12.5 µg/mL,,98%
NNC(=O)c1ccncc1,H37Rv,MIC,,,resazurin,,,0.02 µg/mL
C=C1CC[C@H]2C(C)=CC[C@@H]3[C@H](OC(=O)[C@H]3COC)[C@@H]12,H37Rv,MIC,,,BACTEC,,,≥12.5 µg/mL
O=C(NCc1cnc(N2CCN(S(=O)(=O)C(F)(F)F)C=N2)c(F)c1)c1c(C(F)(F)F)nc2ncc(Cl)cn12,,EC50,,,GFP,,,0.5 µM
Nc1ncnc2c1ncn2[C@H]1O[C@H](CO)[C@@H](O)[C@@H]1O,H37Rv,inhibition,,,BACTEC,12.5 µg/mL,,-12%
CC(=O)NC[C@H]1CN(c2ccc(N3CCN(Cc4ccc([N+](=O)[O-])s4)CC3)c(F)c2)C(=O)O1,16 isolates (MDR),MIC50,,,,,,0.25 µg/mL
CC(C)(C)c1ncc(CCCN=C(N)N)[nH]c1=O,RMP-R,MIC,,,,,,6.3 µg/mL
O=C(CCl)c1ccc(Oc2ccc(C(=O)CCl)cc2)cc1,H37Rv,MIC,,,,,,25 µg/mL

10 of the rows above, restated:

structure	strain	endpoint	setting	changes	method	tested at	cell line	result
CC(C)(C)c1ncc(CCCN=C(N)N)[nH]c1=O	RMP-R	MIC						6.3 µg/mL
CC1CN(c2c(F)cc3c(=O)c(C(=O)O)cn(C4CC4)c3c2F)CCN1	CSU23	MIC						≤0.125 µg/mL
C=C1C(=O)OC2CC1C(O)C/C(C)=C\CC/C(C)=C\C(O)CC2C	H37Rv	MIC			BACTEC			≥12.5 µg/mL
COc1nn(-c2cccc(Oc3ccccc3)c2)c(=O)o1		MIC99						>20 µg/mL
CC1(C)[C@H]2CC[C@@H](CNCCNCC(c3ccccc3)c3ccccc3)[C@@H]1C2		MIC						1.25 µg/mL
CCC(=O)OC[n+]1ccc2c(C)c3[nH]c4ccc(OC)cc4c3c(C)c2c1	H37Rv	MIC			resazurin			0.78 µg/mL
O=C(NCc1cnc(N2CCN(S(=O)(=O)C(F)(F)F)C=N2)c(F)c1)c1c(C(F)(F)F)nc2ncc(Cl)cn12		EC50			GFP			0.5 µM
Nc1ncnc2c1ncn2[C@H]1O[C@H](CO)[C@@H](O)[C@@H]1O	H37Rv	inhibition			BACTEC	12.5 µg/mL		-12%
Cc1cc(C)cc(-n2nnc3ccccc3c2=O)c1	H37Rv	inhibition			resazurin	6.25 µg/mL		46%
CC[C@@H](CO)NCCN[C@@H](CC)CO	CSU21	MIC						>8 µg/mL